A mixed list of measured activities; the numbers were collected in NIAID ChemDB.

Shared fields: tests on isolated targets; agent: HIV-1; protein: Protease

Fold resistance has wild type as its base. Lines come from different laboratories, so protocols vary. a–b is a range or a potency band. ICn: concentration for n% inhibition. An empty or dashed field is not shown. Percent inhibition refers to the dose given; in toxicity tests it is the harm to the cells.

SMILES,dose,read by,endpoint,mutations,value
CC(CCC=O)CCN(C[C@@H](O)[C@H](Cc1ccccc1)NC(=O)OC(C)(C)C)S(=O)(=O)c1cccc2c1OCO2,-,fluorescence,Ki,-,0.001–0.01 µM
C#CC[C@H](NC(=O)COc1cccc2ccccc12)C(=O)N[C@@H](Cc1ccccc1)[C@H](O)C(=O)N1CSC[C@H]1C(=O)NC(C)(C)C,0.05 µM,-,inhibition,-,74%
CCSC(=O)NCCCC(C)(C)CN(C[C@@H](O)[C@H](Cc1ccccc1)NC(=O)O[C@H]1CO[C@H]2OCC[C@H]21)S(=O)(=O)c1ccc2c(c1)OCO2,-,fluorescence,Ki,-,<0.001 µM
O=C([C@@H]1O[C@@H]2CN(Cc3ccccc3)C(=S)[C@H]1O2)N1CCCC1,10 µM,FRET,inhibition,-,0%
CC(C)C[C@H](NC(=O)[C@H](Cc1ccc(O)cc1)NC(=O)CCCCCCCCCCCCCCC(=O)N[C@@H](CC(N)=O)C(=O)N[C@@H](Cc1ccccc1)C(=O)O)C(=O)N[C@@H](Cc1ccccc1)C(N)=O,-,-,IC50,-,2.73 µM
CCOC(=O)NCCCCC(C)(C)CN(C[C@@H](O)[C@H](Cc1ccccc1)NC(=O)O[C@H]1CO[C@H]2OCC[C@H]21)S(=O)(=O)c1cccc(NC)c1,-,fluorescence,Ki,-,<0.001 µM
CC(C)C[C@H](NC(=O)[C@@H](NC(=O)CCCCCCCCCCCCCCC(=O)N[C@@H](CC(N)=O)C(=O)N[C@@H](Cc1ccccc1)C(=O)O)C(C)O)C(=O)N[C@@H](Cc1ccc(N)cc1)C(N)=O,-,-,Ki,-,1.41 µM
CC(C)[C@H](NC(=O)[C@H](C)NC(=O)c1cccnc1)C(=O)N[C@@H](Cc1ccccc1)C(O)C(O)[C@H](Cc1ccccc1)NC(=O)[C@@H](NC(=O)[C@H](C)NC(=O)c1cccnc1)C(C)C,-,-,fold resistance,PR-V82F,0.935
CONC(=O)OCCC(C)(C)CN(C[C@@H](O)[C@H](Cc1ccccc1)NC(=O)O[C@H]1CO[C@H]2OCC[C@H]21)S(=O)(=O)c1ccc2c(c1)OCO2,-,fluorescence,Ki,-,<0.001 µM
CC(C)(C)NC(=O)[C@H]1N(C(=O)[C@@H](O)[C@H](Cc2ccccc2)NC(=O)[C@H](CC(N)=O)NC(=O)COc2cccc3c2CCCC3)CSC1(C)C,0.05 µM,-,inhibition,-,97.9%
Nc1cccc(C(=O)N[C@H](Cc2ccccc2)C[C@H](O)[C@H](Cc2ccccc2)NC(=O)c2cccc(N)c2)c1,-,substrate cleavage,fold resistance,PR-R8Q,5.67
CSC(C)(C)[C@H](NC(=O)COc1cccc2ccccc12)C(=O)N[C@@H](Cc1ccccc1)[C@H](O)C(=O)N1CSC[C@H]1C(=O)NC(C)(C)C,0.05 µM,-,inhibition,-,64.6%
CC(C)C[C@H](NC(=O)[C@@H](NC(=O)CCCCCCCCCCCCCCC(=O)N[C@@H](CC(N)=O)C(=O)N[C@@H](Cc1ccccc1)C(=O)O)C(C)O)C(=O)N[C@@H](Cc1ccc(-c2ccccc2)cc1)C(N)=O,-,-,fold resistance,PR-L10I K45R I54V L63P A71V V82T L90M I93L,~1
CC[C@@H](C)[C@H](NC(=O)[C@@H]1CCCN1C(=O)[C@@H](O)[C@H](CC1CCCCC1)NC(=O)[C@H](CC(N)=O)NC(=O)[C@@H]1Cc2ccccc2CN1)C(=O)N[C@H](C(N)=O)C(C)C,5 µM,-,inhibition,-,96.6%
CC(C)(CCNS(=O)(=O)c1ccccc1)CN(C[C@@H](O)[C@H](Cc1ccccc1)NC(=O)O[C@H]1CO[C@H]2OCC[C@H]21)S(=O)(=O)c1ccc2c(c1)OCO2,-,fluorescence,Ki,-,<0.001 µM
CC[C@@H](C)[C@H](NC(=O)[C@@H]1CCCN1C(=O)[C@@H](O)[C@H](CC1CCCCC1)NC(=O)[C@H](CS(C)(=O)=O)NC(=O)CCc1ccccc1)C(=O)N[C@H](C(N)=O)C(C)C,5 µM,-,inhibition,-,96.8%
CON[C@H](C(=O)NC(=O)[C@H]1N(C(=O)[C@@H](O)[C@H](Cc2ccccc2)NC(=O)[C@@H](NC(=O)[C@H](Cc2ccccc2)NC(C)=O)C(C)C)CSC1(C)C)C(C)C,-,-,fold resistance,PR-V82A,2
CC(C)C[C@@H](C(=O)NCCc1ccccc1)N1C[C@@H]2O[C@H](C(=O)N3CCCCC3)[C@@H](O2)C1=O,10 µM,FRET,inhibition,-,0%
CNC(=S)NCCC(C)(C)CN(C[C@@H](O)[C@H](Cc1ccccc1)NC(=O)O[C@H]1CO[C@H]2OCC[C@H]21)S(=O)(=O)c1ccc2c(c1)OCO2,-,fluorescence,Ki,-,<0.001 µM
CSC[C@H](NC(=O)COc1cccc2ccccc12)C(=O)N[C@@H](Cc1ccccc1)[C@H](O)C(=O)N1CSC[C@H]1C(=O)NC(C)(C)C,-,-,IC50,-,<0.05 µM
COc1cccc(S(=O)(=O)N(C[C@@H](O)[C@H](Cc2ccccc2)NC(=O)O[C@H]2CO[C@H]3OCC[C@H]32)CC(C)(C)CCCNC(=O)OC(C)C)c1,-,fluorescence,Ki,-,<0.001 µM
CC(C)(C)NC(=O)[C@@H]1C[C@H](C2CCCCC2)CN1C(=O)[C@@H](O)[C@H](Cc1ccccc1)NC(=O)[C@H](CC(N)=O)NC(=O)OCc1ccccc1,0.05 µM,-,inhibition,-,1%
CC(C)C[C@H](NC(=O)[C@@H](NC(=O)CCCCCCCCCCCCCCC(=O)N[C@@H](CC[N+](=O)[O-])C(=O)N[C@@H](Cc1ccccc1)C(=O)O)C(C)O)C(=O)N[C@@H](Cc1ccccc1)C(N)=O,-,-,Ki,-,0.828 µM
CN(C)C(=O)NCCC(C)(C)CN(C[C@@H](O)[C@H](Cc1ccccc1)NC(=O)O[C@H]1CO[C@H]2OCC[C@H]21)S(=O)(=O)c1ccc2c(c1)OCO2,-,fluorescence,Ki,-,<0.001 µM
CC(C)[C@H](NC(=O)[C@H](C)NC(=O)OCc1ccccc1)C(=O)N[C@@H](Cc1ccccc1)[C@@H](O)[C@H](O)[C@H](Cc1ccccc1)NC(=O)[C@@H](NC(=O)[C@H](C)NC(=O)OCc1ccccc1)C(C)C,-,-,fold resistance,PR-V82F,4
CCOC(=O)NCC(=O)NCCC(C)(C)CN(C[C@@H](O)[C@H](Cc1ccccc1)NC(=O)O[C@H]1CO[C@H]2OCC[C@H]21)S(=O)(=O)c1ccc2c(c1)OCO2,-,fluorescence,Ki,-,<0.001 µM
CCOC(=O)C1CCN(C(=O)[C@@H]2O[C@@H]3CN(Cc4ccccc4)C(=S)[C@H]2O3)CC1,10 µM,FRET,inhibition,-,0%

For reference, 3 entries again:

{"SMILES": "CSC[C@H](NC(=O)COc1cccc2ccccc12)C(=O)N[C@@H](Cc1ccccc1)[C@H](O)C(=O)N1CSC[C@H]1C(=O)NC(C)(C)C", "endpoint": "IC50", "value": "<0.05 µM"}
{"SMILES": "CON[C@H](C(=O)NC(=O)[C@H]1N(C(=O)[C@@H](O)[C@H](Cc2ccccc2)NC(=O)[C@@H](NC(=O)[C@H](Cc2ccccc2)NC(C)=O)C(C)C)CSC1(C)C)C(C)C", "endpoint": "fold resistance", "mutations": "PR-V82A", "value": "2"}
{"SMILES": "CC[C@@H](C)[C@H](NC(=O)[C@@H]1CCCN1C(=O)[C@@H](O)[C@H](CC1CCCCC1)NC(=O)[C@H](CC(N)=O)NC(=O)[C@@H]1Cc2ccccc2CN1)C(=O)N[C@H](C(N)=O)C(C)C", "dose": "5 µM", "endpoint": "inhibition", "value": "96.6%"}